Measured values published in article PMC10293653 (International Journal of Biological Macromolecules, 2023).

System: Wt-SARS-CoV-2
Type: cell-based

CC#CCn1c(N2CCC[C@@H](N)C2)nc2c1c(=O)n(Cc1nc(C)c3ccccc3n1)c(=O)n2C [Linagliptin, linagliptin]
effect on multiplication of viruses: halted the multiplication of viruses
